Here are results for four molecules from patent publication US12466821B2 (Novartis AG, priority 2018, dated 2025).

Sequences of proteins named here, by UniProt entry; tags and fusion partners are left off.
UniProt P04293, whole entry: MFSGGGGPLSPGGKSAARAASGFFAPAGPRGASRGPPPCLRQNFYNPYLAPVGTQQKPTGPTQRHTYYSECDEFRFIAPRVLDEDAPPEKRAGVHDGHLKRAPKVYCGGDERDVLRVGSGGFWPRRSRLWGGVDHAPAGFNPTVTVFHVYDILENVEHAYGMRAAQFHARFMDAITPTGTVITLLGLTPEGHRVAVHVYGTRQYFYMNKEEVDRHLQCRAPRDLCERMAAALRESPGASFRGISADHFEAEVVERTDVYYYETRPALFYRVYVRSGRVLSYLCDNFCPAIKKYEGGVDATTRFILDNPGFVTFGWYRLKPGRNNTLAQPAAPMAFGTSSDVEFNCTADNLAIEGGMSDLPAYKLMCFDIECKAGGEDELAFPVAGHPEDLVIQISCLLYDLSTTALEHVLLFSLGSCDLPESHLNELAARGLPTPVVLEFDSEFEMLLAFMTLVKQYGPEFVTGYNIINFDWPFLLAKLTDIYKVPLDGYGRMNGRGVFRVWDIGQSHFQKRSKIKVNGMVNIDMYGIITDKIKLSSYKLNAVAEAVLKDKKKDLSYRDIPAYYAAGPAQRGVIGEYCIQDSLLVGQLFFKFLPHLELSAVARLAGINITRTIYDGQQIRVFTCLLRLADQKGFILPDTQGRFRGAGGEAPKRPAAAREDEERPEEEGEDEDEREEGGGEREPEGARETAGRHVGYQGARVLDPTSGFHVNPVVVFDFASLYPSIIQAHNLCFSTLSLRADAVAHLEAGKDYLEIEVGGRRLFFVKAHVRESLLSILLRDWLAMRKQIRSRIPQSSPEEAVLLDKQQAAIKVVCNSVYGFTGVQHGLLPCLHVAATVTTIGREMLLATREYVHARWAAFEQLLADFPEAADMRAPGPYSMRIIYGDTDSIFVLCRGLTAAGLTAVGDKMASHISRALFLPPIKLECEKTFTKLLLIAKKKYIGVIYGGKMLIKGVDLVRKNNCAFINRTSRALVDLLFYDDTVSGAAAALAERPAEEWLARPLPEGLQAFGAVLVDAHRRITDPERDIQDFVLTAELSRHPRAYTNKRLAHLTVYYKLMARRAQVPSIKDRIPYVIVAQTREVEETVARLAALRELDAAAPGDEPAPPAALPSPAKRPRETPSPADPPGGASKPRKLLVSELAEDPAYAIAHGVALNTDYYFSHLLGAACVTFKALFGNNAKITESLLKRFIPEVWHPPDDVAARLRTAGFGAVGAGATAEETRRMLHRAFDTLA
UniProt P08546, whole entry: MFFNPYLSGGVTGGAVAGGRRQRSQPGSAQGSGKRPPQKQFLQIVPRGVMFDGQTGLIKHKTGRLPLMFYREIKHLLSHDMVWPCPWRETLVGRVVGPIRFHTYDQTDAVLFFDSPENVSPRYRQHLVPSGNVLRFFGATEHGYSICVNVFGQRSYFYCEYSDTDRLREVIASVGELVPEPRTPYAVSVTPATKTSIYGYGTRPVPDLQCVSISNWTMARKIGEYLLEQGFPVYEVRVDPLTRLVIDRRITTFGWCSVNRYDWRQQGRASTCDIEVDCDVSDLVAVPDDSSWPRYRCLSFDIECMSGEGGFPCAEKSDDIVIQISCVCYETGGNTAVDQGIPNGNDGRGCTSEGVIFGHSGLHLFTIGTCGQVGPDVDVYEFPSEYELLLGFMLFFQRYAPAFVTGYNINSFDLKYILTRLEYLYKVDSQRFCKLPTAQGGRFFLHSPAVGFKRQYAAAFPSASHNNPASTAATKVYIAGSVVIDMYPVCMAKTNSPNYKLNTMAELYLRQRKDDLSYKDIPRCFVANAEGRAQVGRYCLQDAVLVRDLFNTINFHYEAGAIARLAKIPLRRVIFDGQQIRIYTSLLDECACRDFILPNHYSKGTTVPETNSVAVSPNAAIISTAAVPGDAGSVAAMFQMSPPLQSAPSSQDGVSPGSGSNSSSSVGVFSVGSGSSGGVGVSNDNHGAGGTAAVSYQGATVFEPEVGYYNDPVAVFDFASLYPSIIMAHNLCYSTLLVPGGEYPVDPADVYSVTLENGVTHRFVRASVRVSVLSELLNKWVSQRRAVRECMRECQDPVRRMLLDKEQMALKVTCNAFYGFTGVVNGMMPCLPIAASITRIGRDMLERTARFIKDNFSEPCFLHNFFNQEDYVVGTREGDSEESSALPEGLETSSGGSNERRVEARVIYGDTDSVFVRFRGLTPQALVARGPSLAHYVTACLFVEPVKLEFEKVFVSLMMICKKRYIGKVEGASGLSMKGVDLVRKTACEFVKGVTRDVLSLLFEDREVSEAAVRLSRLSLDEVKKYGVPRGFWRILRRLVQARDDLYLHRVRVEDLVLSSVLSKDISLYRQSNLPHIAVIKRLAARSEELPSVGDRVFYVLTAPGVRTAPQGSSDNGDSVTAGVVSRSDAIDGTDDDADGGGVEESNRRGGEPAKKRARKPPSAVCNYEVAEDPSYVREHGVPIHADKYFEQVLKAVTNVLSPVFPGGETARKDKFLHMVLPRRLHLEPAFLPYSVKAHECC

Assay [1] deals with human HSV DNA polymerase UL30 (Human herpesvirus 1 (strain 17) (HHV-1) (Human herpes simplex virus 1), UniProt P04293). Put plainly: HSV polymerase biochemical assay (molecular beacon-based). The conditions noted are these: read-out: HSV-polymerase Biochemical IC50. Here is the method: (§1) Both human CMV DNA polymerase UL54 and human HSV DNA polymerase UL30 were produced as N-terminal MBP fusion of the full length, wild type recombinant proteins in order to enhance soluble expression in insect cell expression system. The proteins were expressed in sf9 insect cells via baculovirus transduction and cells were harvested after 48 hours. The soluble proteins were purified using the standard Ni-IMAC purification strategy via the N-terminal hexa-Histidine tag, followed by heparin affinity chromatography. Both of the final MBP fusion proteins were more than 90% pure and the yield of UL54 was up to 1.8 mg per liter culture while UL30 was up to 15 mg per liter culture. All purification steps were performed on ice, with buffers chilled on ice and FPLC fraction collectors set at 6° C. The final UL54 protein was concentrated and stored in buffer containing 35 mM Tris pH7.5, 375 mM NaCl, 42.5% Glycerol, and 1 mM TCEP at −20° C. UL30 protein was stored in buffer containing 20 mM HEPES, pH7.0, 420 mM NaCl, 20% glycerol, 6 mM Imidazole, and 0.8 mM DTT at−80° C.
(§2) DNA polymerase activity was measured using a molecular beacon-based assay, as described in Ma et. al.
(§3) 100 pM CMV polymerase or 625 pM HSV polymerase was added to a buffer containing 20 mM Tris, pH=7.5, 100 mM NaCl, 10 mM MgCl2, 0.01% Tween-20, 0.5 mM EDTA, 10% Sucrose and 1 mM DTT. The inhibitor was pre-incubated with the polymerase for 30 minutes at room temperature. Reactions were initiated by the addition of a mixture containing 1.25 uM dATP, 1.25 uM dCTP, 1.25 uM dTTP, 1.25 uM dGTP, 200 nM Primer B (5′-GAC GGG AAG-3′5′-GAC GGG AAG-3′) and 100 nM molecular beacon (5′-5,6-FAM-CCTCTCCGTGTCTTGTACTTCCCGTCAGAGAGG-BHQ1-3′). For human CMV polymerase the reactions were incubated for 60 minutes at room temperature. For HSV polymerase the reactions were incubated for 20 minutes at room temperature. The reactions were then read on a Perkin-Elmer EnVision 2101 reader (fluorescence) using an excitation of 480 nm and emission of 535 nm. 1050s were determined using an internal Novartis software (Helios).
as §3, with “For human CMV polymerase the reactions were incubated for 60 minutes at room temperature. For HSV polymerase the reactions were incubated for 20 minutes at room temperature.” left out, “nm.” for “nm. 1050s were determined using an internal Novartis software (Helios).”

Assay [2] has as its system Luciferase-encoding HCMV, AD169 strain. Put plainly: CMV Luciferase assay (cellular herpesvirus replication). Type of assay: cell-based. The conditions noted are these: read-out: CMV-Luc Cellular EC50. Here is the method: For all viral assays, 10 mM DMSO stock compound solutions were serially diluted in DMSO at 3.16 fold dilutions in 96-well clear round bottom plates. Compounds were then diluted in assay media at 1:20 and subsequently 10 μL of these dilutions were added to cells for final compound concentrations ranging either from 0.0159 μM to 50 μM in 0.5% DMSO/assay media, or from 0.00318 to 10 μM in 0.5% DMSO/assay media.
The assay uses a Luciferase-encoding HCMV. Luciferase is expressed under the control of a late viral gene (pp28) promoter in the AD169 strain, so that expression of the reporter is dependent on viral DNA replication. Compounds that affect any stage from viral entry to DNA replication result in a change in luciferase levels.
Viral replication in the presence or absence of compounds was measured by luciferase activity according to the following procedure: Neo-natal normal human dermal fibroblast cells (NN-NHDF, from ATCC cat #201-010) were seeded at 9,000 cells/well in 96-well white solid bottom plate at 80 uL/well in assay media: 2% FBS, 4 mM GlutaMax® (Invitrogen cat #35050) in DMEM/high glucose/no glutamine/no phenol red media (Invitrogen cat #31053). After 2 hrs at 37° C., 10 uL of compound diluted in assay media or 5% DMSO (final 0.5% DMSO/well) was added and the plates returned to 37° C. One hour later, 10 uL of virus diluted in assay media was added at a final Multiplicity of infection (MOI) of 1. Plates were incubated at 37° C. for 72 hrs. At 72 hours post-infection (hpi), plates were equilibrated to room temperature. After 25 min, 100 uL Renilla-Glo® Luciferase Assay Reagent (Promega cat # E2750) was added to each well and incubated for 10 min. Plates were covered to protect from light. Luminescence was measured on the PHERAstar FS®.
The following controls were included in the data analysis: No virus, no compound (0.5% DMSO)=IC (maximal inhibitory control); Virus, no compound (0.5% DMSO)=NC (neutral control). Data were analyzed using an internal Novartis software (Helios). The means of the controls (NC, IC) were used to normalize the results to a % scale using the formula: % Control=100−(100*(Sample value−NC)/(IC−NC)).
For each compound, the software derived an EC50 using a 4-parameter logistical model.

Assay [3] deals with human CMV DNA polymerase UL54 (Human cytomegalovirus (strain AD169) (HHV-5) (Human herpesvirus 5), UniProt P08546). Put plainly: CMV polymerase biochemical assay (molecular beacon-based). The conditions noted are these: read-out: CMV-polymerase Biochemical IC50. Here is the method: as §1, §2, §3
as §3, with “For human CMV polymerase the reactions were incubated for 60 minutes at room temperature. For HSV polymerase the reactions were incubated for 20 minutes at room temperature.” left out, “nm.” for “nm. 1050s were determined using an internal Novartis software (Helios).”

Take `N#Cc1ccc(CNC(=O)c2ccc3n(c2=O)CCN(CC2(S(N)(=O)=O)CC2)C3=O)cc1`: the figures for the 50% inhibitory concentration (IC50) in assay [1] and in assay [3] were 111 nM and 3.3 nM, respectively. For the same molecule, the concentration giving a half-maximal response (EC50) (usually the concentration at which the effect is half-maximal) in assay [2] is 575 nM.
As for `N#CCC1(CS(=O)(=O)C2(CN3CCn4c(ccc(C(=O)NCc5ccc(C#N)c(F)c5)c4=O)C3=O)CC2)CC1`, the half-inhibitory concentration (IC50) (commonly the concentration at which inhibition is half-maximal) in assay [1] turned out to be 138 nM; in assay [3] it was 9.6 nM. Also, the EC50 in assay [2] worked out at 385 nM.
For the molecule `O=C(NCc1ccc(Cl)nc1)c1ccc2n(c1=O)CCN(CC1(S(=O)(=O)C3CC3)CC1)C2=O`, the IC50 stood at 160 nM in assay [1] and 5.1 nM in assay [3]. Moreover, the EC50 in assay [2] turned out to be 223 nM.
The like results for `N#CCC1(CS(=O)(=O)C2(CN3CCn4c(ccc(C(=O)NCc5ccc(C#N)cc5)c4=O)C3=O)CC2)CC1` were, in that order, 182 nM, 16.9 nM and 750 nM.
